Experimental data reported in patent publication CN117756932A (INST MILITARY MEDICINE ACADEMY MILITARY SCIENCES PLA, dated 2024).

B1: 重链抗体LcrVX19-R1-Fc (Fc fusion)
heavy: QLQLVESGGGSVQAGGSLRLSCQATGYIIEVGFMGWFRQTPGKEREGVAAISAASGATYYIDSVKGRFTISRDKAKNTMYLQMDSPRAEDTAMYYCAAEPTPLPDRNWWFLPRAYNVWGQGTLVTVSSAS[human IgG1 Fc with changes not spelt out]
B2: 重链抗体LcrVX19-Fc (Fc fusion)
heavy: QLQLVESGGGSVQAGGSLRLSCQATGYIIEVGFMGWFRQTPGKEREGVAAISAASGATYYIDSVKGRFTISRDKAKNTMYLQMDSPKPEDTAMYYCAAEPTPLPDRNWWFLPRAYNVWGQGTQVTVSSAS[human IgG1 Fc with changes not spelt out]
B3: 重链抗体LcrVX19-R2-Fc (Fc fusion)
heavy: EVQLVESGGGSVQAGGSLRLSCQATGYIIEVGFMGWFRQTPGKEREGVAAISAASGATYYIDSVKGRFTISRDKAKNTMYLQMDSPRAEDTAMYYCAAEPTPLPDRNWWFLPRAYNVWGQGTLVTVSSAS[human IgG1 Fc with changes not spelt out]
B4: 重链抗体LcrVX19-R3-Fc (Fc fusion)
heavy: EVQLVESGGGSVQAGGSLRLSCQATGYIIEVGFMGWFRQTPGKEREGVAAISAASGATYYIDSVKGRFTISRDNAKNTMYLQMDSLRAEDTAMYYCAAEPTPLPDRNWWFLPRAYNVWGQGTLVTVSSAS[human IgG1 Fc with changes not spelt out]

Molecular target: 鼠疫菌LcrV重组蛋白 (鼠疫耶尔森氏菌 (Yersinia pestis))

Row | Binder | Kd | EC50
1 | B1 | 0.561 nM | 
2 | B2 | 0.612 nM | 0.0109 nM
3 | B3 | 0.661 nM | 
4 | B4 | 0.848 nM | 
